Data: US20240003880A1 (TRUSTEES OF COLUMBIA UNIVERSITY IN THE CITY OF NEW YORK, published 2024)

B1: chimeric 9-11 (antibody, V domains shown)
VH: QVQLVQSGAEVKKPGASVKVSCKASGYTFTSYAISWVRQAPGQGLEWMGWISAYTGNTNYAQKLQGRVTMTTDTSTSTAYMELRSLRSDDTAVYYCARNGWDYDTSGTHDYWGQGTLVTVSS
VL: not shown
B2: chimeric 9-15 (antibody, V domains shown)
VH: QVQLVQSGAEVKKPGSSVKVSCKASGGTFSSYAISWVRQAPGQGLEWMGGIIPIFGTANYAQKFQGRVTITAEESTSTAYMELSSLRSEDTAVYYCARDGWAAAGPDTSLLGTFDIWGQGTMVTVSS
VL: QSALTQPPSVSGSPGQSVTISCTGTSSDVGSYNRVSWYQQPPGTAPKLIIYEVSNRPSGVPDRFSGSKSGNTASLTISGLQAEDEADYYCSSYTSSSTYVVFGGGTKLTVLG

Biological target: SARS-CoV-2 nucleocapsid phosphoprotein (SARS-CoV-2, UniProt P0DTC9 1-419)
Assay: sandwich ELISA, 9-24 as capture, chimeric antibody as detector (FIG. 8B)

Binder	binding result
B1	binds
B2	binds
